Test results from US12252423B2, “Biodegradation of fluorochemicals” (The Trustees of Princeton University, priority 2018, dated 2025).

Test system: A6 enrichment culture
Experiment: Feammox incubation of various PFAS with A6 enrichment culture, day 60
Set-up: species or system Acidimicrobiaceae sp. A6
Conditions: initial conc. 100 mg/l

O=S(=O)(O)CCC(F)(F)C(F)(F)C(F)(F)C(F)(F)C(F)(F)C(F)(F)C(F)(F)C(F)(F)F [8:2 FTS, 8:2 Fluorotelomer sulfonate]
Acetate produced: 5.1 mg/L | Decrease in concentration: 23.5 mg/L | F^− produced: 6.9 mg/L | % defluorination of initial compound degraded (ratio of F− produced to F− expected for complete defluorination): 48%
